Screening data, single-dose tests

Mtb glucose medium: 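Whole-cell growth test on Mycobacterium tuberculosis, read after 3 days in glucose-containing 7H9 medium; the read-out is not stated. Concentration: 50 µM. Higher reads as more growth inhibition (inferred: compounds with an IC50 in retests scored well above the rest). About 69,000 compounds were tested under these conditions; 1.1% (about 760) showed 50% or more at least once.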
Mtb cholesterol medium: 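Whole-cell growth test on Mycobacterium tuberculosis, read after 4 days in a medium based on cholesterol and the lipid DPPC; the read-out is not stated. Compounds at 50 µM. Higher reads as more growth inhibition (inferred: compounds with an IC50 in retests scored well above the rest). Size under these conditions: about 69,000 compounds, about 370 of them at 50% or above in at least one test.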

The filed quantity is “Percent Effect” (%).
How 0% and 100% were set is not recorded. Most values in the screen are low, and negative values occur.
Many other results are left out here, so strong results are more common than in the screen.
Two or more numbers in one place are separate tests of the same structure; such repeats can differ widely.

- Cc1nc(C2CCNCC2)cc(N2CCOc3ccccc3C2)n1 : Mtb glucose medium: 4.064%
- COCCNc1nc2c(c(NCc3ccncc3)n1)CCNCC2 : Mtb glucose medium: 3.052%
- Cc1c(-c2cc(C(F)(F)F)nc(N3CCC(N)CC3)n2)cnn1C : Mtb glucose medium: 12.62% and -26.15%; Mtb cholesterol medium: -27.77%
- COc1cc(C(=O)Nc2nc(C)no2)ccc1C : Mtb glucose medium: 73.9%
- Cl.Clc1ccccc1CN1CCc2nc(C3CCNCC3)ncc2C1 : Mtb glucose medium: 65.83%
- CCn1nc(C)cc1C(=O)NCc1cccnc1N(C)C : Mtb glucose medium: 2.463%; Mtb cholesterol medium: 7.963%
- Cc1cc(C)cc(NCCC(=O)NC2CCCCC2)c1 : Mtb glucose medium: 18.95% and 8.203%
- COCC(=O)N1CCO[C@]2(CCC[C@H]2COC)C1 : Mtb glucose medium: -11.48%
- COc1cc(Cl)c(C)cc1NC(=O)CNc1ccn(CC(N)=O)n1 : Mtb glucose medium: 8.898%
- O=C(NCC1CCOC1)c1cc(-c2cccc(Cl)c2)on1 (centres unmarked) : Mtb glucose medium: -1.815%
- O=C(Cc1ccc2c(c1)OCO2)N1CCN(c2ccncc2)CC1 : Mtb cholesterol medium: -7.904%
- Cc1ccnc(NC(=O)C2(n3cnnn3)CCCCC2)c1 : Mtb glucose medium: 17.77%
- Clc1ccccc1C1(c2ccnc(-c3ncccn3)n2)CCNCC1 : Mtb glucose medium: 13.68%
- c1cnnc(N2CCCC2CNc2nc3ccccc3o2)c1 (centres unmarked) : Mtb glucose medium: 5.21%; Mtb cholesterol medium: -11.61%
- CC(C)(C)c1n[nH]cc1CNCC1CCN(C2CC2)C1.Cl (centres unmarked) : Mtb glucose medium: 63.53% and 70.38%; Mtb cholesterol medium: 56.4%
- CCNC(=O)NC(C)c1nc(-c2ccc(Br)cc2)no1 (centres unmarked) : Mtb glucose medium: 38.52%
- Cc1nc(C2CCCN(C(=O)c3ccc(S(C)(=O)=O)cc3)C2)no1 (centres unmarked) : Mtb glucose medium: 93.51%
- CC(C)Cc1nc(CN(C)c2cc(C(C)C)nc3ccnn23)no1 : Mtb glucose medium: 39.14%; Mtb cholesterol medium: 33.85%
- O=C(CCN1CCCC1c1cccc2c1OCCO2)N1CCOCC1 (centres unmarked) : Mtb glucose medium: 50.18%
- CCN(CC)C(=O)CN1CCC2(C=Cc3cc(Cl)c(C)cc3O2)CC1 : Mtb glucose medium: 19.67%; Mtb cholesterol medium: 24% and 40.13%
- O=C(CCCn1cnnn1)N1CCC(c2ccncc2)CC1 : Mtb cholesterol medium: -19.66%
- Cc1cccc(CNC(Cc2ccsc2)c2nccs2)n1 (centres unmarked) : Mtb glucose medium: 37.91%
- O=C(Cn1cc(Cl)cn1)Nc1ccc2c(c1)OCO2 : Mtb glucose medium: -9.521%; Mtb cholesterol medium: -8.728%
- Cc1nc2c(c(NCC3Cc4ccccc4CN3C)n1)CCNCC2 (centres unmarked) : Mtb glucose medium: 21.29%

3 of the entries, repeated:

{"structure": "O=C(NCC1CCOC1)c1cc(-c2cccc(Cl)c2)on1", "stereo": "centres unmarked", "Mtb glucose medium": -1.815}
{"structure": "CC(C)(C)c1n[nH]cc1CNCC1CCN(C2CC2)C1.Cl", "stereo": "centres unmarked", "Mtb glucose medium": "63.53 and 70.38", "Mtb cholesterol medium": 56.4}
{"structure": "COCCNc1nc2c(c(NCc3ccncc3)n1)CCNCC2", "Mtb glucose medium": 3.052}

From ChEMBL document CHEMBL3988442, “University of Dundee, Small-Polar-MMV Screening Library” (2021).